Laboratory results as given in publication PMC10764318.

Chains of the proteins cited; added tags and fusions are not shown. Chains listed by the source or under a name are the forms on record and can include a tag or linker.
WRAIR-5001 (rhesus macaque), VH, as listed by the source, chain 1 of 2: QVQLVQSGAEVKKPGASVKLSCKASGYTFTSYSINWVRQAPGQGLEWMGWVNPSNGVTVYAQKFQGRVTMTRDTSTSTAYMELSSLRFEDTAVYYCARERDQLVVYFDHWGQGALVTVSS
WRAIR-5001 (rhesus macaque), VL, as listed by the source, chain 2 of 2: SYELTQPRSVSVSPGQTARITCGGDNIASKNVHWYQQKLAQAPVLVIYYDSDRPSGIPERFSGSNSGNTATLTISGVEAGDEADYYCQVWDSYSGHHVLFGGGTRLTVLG

What was measured:
[1] = biological target: WRAIR-5001 (rhesus macaque); assay: BLI
[2] = biological target: SARS-CoV-2 Delta (B.1.617.2) RBD (SARS-CoV-2) (UniProt P0DTC2); assay: BLI

Substance: SARS-CoV-2 Delta RBD (from UniProt P0DTC2 331-527) (domain or fragment)
- Kd [1]: 0.49 nM

Substance: WRAIR-5001 (from UniProt P01857)
- Kd [2]: 0.49 nM
